PubChem BioAssay AID624099, ICCB-Longwood | 2012
Test: 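Host factors E2 relies on to silence an HPV18 LCR reporter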 (primary screen). Cells: human C33A cervical carcinoma cells (HPV-negative) stably expressing BPV1 E2 and an HPV18 LCR luciferase reporter. Reagents: siRNA pool against human genes, 40 nM. Duration: 72 h. Detection: 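HPV18 LCR reporter light per well, converted to plate-wise z-scores that exclude control wells, and averaged over triplicate plates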. Scale: mean z-score and z-score: higher = stronger reporter signal, weaker E2 silencing. Call rule: 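Hit if mean z-score reaches 2 and two or more of three replicate z-scores also reach 2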.
Shown is one part, drawn at random, of about 21,000 reagents. In the full data, 497 (2.4%) were called active. 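Higher z means weaker E2 silencing; only reporter increases were scored, and knock-downs that hurt cell survival may mask genuine repressor factors.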 Unmarked entries are inactive.

Knock-down of MED8 came out at: mean z-score -2.37; z-score, replicate A = -2.34; z-score, replicate B = -2.53; z-score, replicate C = -2.25.
Against LOC400547 (retired record), the values are mean z-score 0.45; z-score, replicate A = 0.77; z-score, replicate B = 0.1; z-score, replicate C = 0.48.
WDR64 gave mean z-score -0.41; z-score, replicate A = -0.18; z-score, replicate B = -0.32; z-score, replicate C = -0.72.
HSFX1 scored mean z-score -0.24; z-score, replicate A = 0.12; z-score, replicate B = -0.37; z-score, replicate C = -0.48.
Against MAP2K1, the values are mean z-score -0.48; z-score, replicate A = -0.39; z-score, replicate B = -0.41; z-score, replicate C = -0.64.
With knock-down of PPP1R37, the screen gave mean z-score -0.64; z-score, replicate A = -0.35; z-score, replicate B = -1.05; z-score, replicate C = -0.5.
RAD51AP1 gave mean z-score 0.09; z-score, replicate A = 0.76; z-score, replicate B = -0.11; z-score, replicate C = -0.36.
Against COBL, the entry reads mean z-score -0.22; z-score, replicate A = 0.05; z-score, replicate B = -0.29; z-score, replicate C = -0.41.
With knock-down of CALCOCO2 the results were mean z-score -1.87; z-score, replicate A = -2.27; z-score, replicate B = -1.48; z-score, replicate C = -1.87.
LOC390466 (retired record) showed mean z-score -0.11; z-score, replicate A = -0.44; z-score, replicate B = 0.08; z-score, replicate C = 0.03.

4 entries already listed, sorted by “z-score, replicate A”, low to high.
MAP2K1: mean z-score = -0.48; z-score, replicate A = -0.39; z-score, replicate B = -0.41; z-score, replicate C = -0.64
PPP1R37: mean z-score = -0.64; z-score, replicate A = -0.35; z-score, replicate B = -1.05; z-score, replicate C = -0.5
HSFX1: mean z-score = -0.24; z-score, replicate A = 0.12; z-score, replicate B = -0.37; z-score, replicate C = -0.48
RAD51AP1: mean z-score = 0.09; z-score, replicate A = 0.76; z-score, replicate B = -0.11; z-score, replicate C = -0.36

More records:
Silencing of U2AF2 came out at: mean z-score -1.9; z-score, replicate A = -2.2; z-score, replicate B = -1.92; z-score, replicate C = -1.58.
For GATA1 the deposit lists mean z-score -0.97; z-score, replicate A = -0.94; z-score, replicate B = -0.84; z-score, replicate C = -1.14.
Depletion of SERPINB2 resulted in: mean z-score -0.07; z-score, replicate A = 0.02; z-score, replicate B = -0.31; z-score, replicate C = 0.08.
With knock-down of MOSPD3 the results were mean z-score 0.22; z-score, replicate A = 0.39; z-score, replicate B = 0.13; z-score, replicate C = 0.13.
With knock-down of SSBP1 the results were mean z-score 0.25; z-score, replicate A = 0.61; z-score, replicate B = 0.19; z-score, replicate C = -0.06.
Knock-down of OSBPL3 gave: mean z-score -1.15; z-score, replicate A = -1.46; z-score, replicate B = -0.94; z-score, replicate C = -1.06.
After knock-down of MIB1 the results were mean z-score 1.49; z-score, replicate A = 1.81; z-score, replicate B = 1.12; z-score, replicate C = 1.54.
Knock-down of NAXE gave: mean z-score -0.94; z-score, replicate A = -1.16; z-score, replicate B = -0.79; z-score, replicate C = -0.86.
For GCSAML, the values are mean z-score -0.92; z-score, replicate A = -1.32; z-score, replicate B = -0.36; z-score, replicate C = -1.09.
With knock-down of LRIG3, the record shows mean z-score -0.91; z-score, replicate A = -0.72; z-score, replicate B = -1.18; z-score, replicate C = -0.82.
Against TRIL, the entry reads mean z-score 0.52; z-score, replicate A = 0.31; z-score, replicate B = 0.44; z-score, replicate C = 0.8.
